Anti-infective test results gathered from many reports (values: NIAID ChemDB through PubChem).

Shared fields: growth or infection tests; agent: HIV-1; cell line: C8166; measure: EC50

Rows are shuffled and stem from different studies. Two numbers with a dash give a range or band. An empty or dashed field is not shown. ECn is the concentration giving n% inhibition of infection, replication or growth.

SMILES | strain | mutations | read by | result
C=C(C)[C@]1(O)C[C@@H](C)[C@@]2(O)[C@H]([C@H]1OC(=O)/C=C/C=C/CCCCC)[C@@H]1O[C@]1(CO)[C@@H](O)[C@]1(O)C(=O)C(C)=C[C@H]12 | IIIB | - | syncytia | 0.01447 µM
CCCC(C(=O)O)c1c(C)nc2ccc(Cl)cc2c1-c1ccccc1 | - | - | luciferase / reporter gene | <20 µM
CC(=O)OCC1=C[C@H]2[C@@H]3C(C)(C)[C@]3(OC(C)=O)[C@H](OC(C)=O)[C@@H](C)[C@]2(O)[C@@H]2C=C(C)C(=O)[C@@]2(O)C1 | IIIB | - | p24 / ELISA | 8.955 µM
CCN1c2ncc(CCOc3ccc(C(=O)O)c4c3CCN(C(=O)N(C)C)C4)cc2C(=O)N(C)c2cccnc21 | - | RT-K103N Y181C | p24 | <0.1 µM
CC(=O)O[C@@]12[C@H](OC(=O)CCCCCBr)[C@@H](C)[C@@]3(O)[C@@H](C=C(CO)C[C@]4(O)C(=O)C(C)=C[C@@H]34)[C@@H]1C2(C)C | IIIB | - | p24 / ELISA | >200 µM
Cc1nc2ccc(Cl)cc2c(-c2cccc(F)c2)c1C(OC(C)C)C(=O)O | - | - | luciferase / reporter gene | <20 µM
CCN1c2ncc(CCOc3ccc(/C=C(\C)C(=O)O)c4ccccc34)cc2C(=O)Nc2c(C)cc(Cl)nc21 | - | RT-K103N Y181C | p24 | 0.1–1 µM
Cc1nc2ccc(Cl)cc2c(-c2ccsc2)c1C(OC(C)C)C(=O)O | - | - | luciferase / reporter gene | <20 µM
Nc1nc(NC2CC2)c2ncn([C@H]3C=C[C@@H](CO)C3)c2n1 | HXB2 | - | p24 | 0.9 µM
CCN1c2ncc(CCOc3ccc(NS(=O)(=O)C(F)(F)F)c4ccccc34)cc2C(=O)N(C)c2ccc(F)nc21 | WT | - | p24 | <0.1 µM
CCCCCCCCC(=O)O[C@@H]1[C@@H](C)[C@]2(O)[C@@H]3C=C(C)C(=O)[C@@H]3CC(CO)=C[C@H]2[C@@H]2C(C)(C)[C@]12OC(=O)CCCCCCCC | IIIB | - | p24 / ELISA | 6.23 µM
CCN1c2ncc(CCOc3ccc(-c4ccc(CC(=O)O)cc4)cc3C)cc2C(=O)N(C)c2cccnc21 | - | RT-K103N Y181C | p24 | <0.01 µM
Cc1cn([C@H]2C[C@H](N=[N+]=[N-])[C@@H](CO)O2)c(=O)[nH]c1=O | IIIB | - | p24 / ELISA | 0.0297 µg/mL
CCN1c2ncc(CCOc3ccc(C(=O)NS(=O)(=O)c4ccccc4)cc3C)cc2C(=O)N(C)c2cccnc21 | IIIB | - | p24 | 0.01–0.05 µM
C/C=C(/C)C(=O)O[C@@]12[C@H](O)[C@@H](C)[C@@]3(O)[C@@H](C=C(CO)C[C@]4(O)C(=O)C(C)=C[C@@H]34)[C@@H]1C2(C)C | IIIB | - | p24 / ELISA | 44.5 µM
CCN1c2ncc(CCOc3ccc(C(=O)O)c4c3CCCC4)cc2C(=O)N(C)c2ccc(Cl)nc21 | WT | - | p24 | <0.1 µM
CCc1ccc(-c2c(C(O[C@@H](C)CC)C(=O)O)c(C)nc3ccc(Cl)cc23)cc1 | - | - | luciferase / reporter gene | <20 µM
CC/C=C\C/C=C\C/C=C\C/C=C\C/C=C\C/C=C\CCC(=O)O[C@@H]1[C@@H](C)[C@@]2(O)[C@@H](C=C(CO)C[C@]3(O)C(=O)C(C)=C[C@@H]23)[C@@H]2C(C)(C)[C@]12OC(=O)CCC | IIIB | - | p24 / ELISA | 0.0283 µM
CCN1c2ncc(CCOc3ccc(C(=O)O)c4c3CCC4)cc2C(=O)N(C)c2ccc(Cl)nc21 | WT | - | p24 | <0.1 µM
CCN1c2ncc(CCOc3ccc(Nc4ccc(C(=O)O)cn4)cc3C)cc2C(=O)N(C)c2cccnc21 | - | RT-K103N Y181C | p24 | 0.01–0.05 µM
Cc1nc2ccc(Cl)cc2c(-c2ccc(CCF)cc2)c1[C@H](OC(C)(C)C)C(=O)O | - | - | luciferase / reporter gene | <20 µM
CCN1c2ncc(CCOc3ccc(C(=O)O)c4c3CCCC4)cc2C(=O)N(C)c2ccc(OC)nc21 | WT | - | p24 | <0.1 µM
CCN1c2ncc(CCOc3ccc(C(=O)N=c4ccn(O)cc4)cc3C)cc2C(=O)N(C)c2cccnc21 | IIIB | - | p24 | <0.01 µM
CCN1c2ncc(CCOc3ccc(C(=O)O)c4c3CCCC4)cc2C(=O)N(C)c2ccc(F)nc21 | WT | - | p24 | <0.1 µM
CCN1c2ncc(CCOc3ccc(Nc4ccccn4)cc3C)cc2C(=O)N(C)c2cccnc21 | - | RT-K103N Y181C | p24 | <0.01 µM
Cc1nc2ccc(Cl)cc2c(-c2ccc(C(F)(F)F)cc2)c1C(OC(C)C)C(=O)O | - | - | luciferase / reporter gene | <20 µM
CCN1c2ncc(CCOc3ccc(S(=O)(=O)NCC(=O)O)c4ccccc34)cc2C(=O)N(C)c2cccnc21 | WT | - | p24 | 0.1–1 µM
CC(C)OC(=O)OCOP(=O)(CO[C@H](C)Cn1cnc2c(N)ncnc21)OCOC(=O)OC(C)C | - | - | p24 / ELISA | 0.01861 µM
Cc1ccc(-c2c(C(OC(C)C)C(=O)O)c(C)nc3ccc(Cl)cc23)c(C)c1 | - | - | luciferase / reporter gene | <20 µM

Again, the opening 2 rows:

SMILES,strain,mutations,read by,result
C=C(C)[C@]1(O)C[C@@H](C)[C@@]2(O)[C@H]([C@H]1OC(=O)/C=C/C=C/CCCCC)[C@@H]1O[C@]1(CO)[C@@H](O)[C@]1(O)C(=O)C(C)=C[C@H]12,IIIB,-,syncytia,0.01447 µM
CCCC(C(=O)O)c1c(C)nc2ccc(Cl)cc2c1-c1ccccc1,-,-,luciferase / reporter gene,<20 µM